Pooled drug test results. Numbers come from NIAID ChemDB, via PubChem.

Shared fields: growth or infection tests; agent: Candida albicans; measure: MIC

Two numbers with a dash give a range or band. Blank or dashed fields: not listed here. Rows are shuffled and stem from different studies.

SMILES | strain | read by | value
CCN1CCN(Cn2nc(C34CC5CC(CC(C5)C3)C4)oc2=S)CC1 | ATCC 753 | - | 200 µg/mL
O=[N+]([O-])c1ccc(/C=N/NC(=S)N2CCCC2)o1 | - | - | 100 µg/mL
Cc1ccc(C(=O)NNC(N)=S)cc1 | - | - | >100 µg/mL
C[C@H](n1nnnc1CCN1CCN(c2ccccc2Cl)CC1)[C@](O)(Cn1cncn1)c1ccc(F)cc1F | - | - | 4 µg/mL
N/C(=N\NC(=O)c1ccc([N+](=O)[O-])cc1)SCc1cccc(Cl)c1 | - | - | >100 µg/mL
OC(Cn1cncn1)(Cn1nnnc1CCN1CCN(c2ccccc2Cl)CC1)c1ccc(F)cc1F | V-01-191A-261 (resistant) | - | 4 µg/mL
CC#CC#CC#Cc1ccccc1 | - | - | 12.5–50 µg/mL
C=C(C)C(=O)NCCCCC(N)C(=O)NCCCCC(N)C(=O)O | - | - | 27 µg/mL
CO[C@@H](n1cncn1)[C@](O)(Cn1cccn1)c1ccc(F)cc1F | - | - | >100 µg/mL
CCCCCOc1ccc(-c2ccc(-c3ccc(C(=O)N[C@H]4CCCNC(=O)[C@@H]5C[C@H](N)CN5C(=O)[C@H](CCCN=C(N)N)NC(=O)C(CCc5ccc(O)cc5)NC(=O)[C@@H]5C[C@@H](O)CN5C(=O)[C@H]([C@@H](C)O)NC4=O)cc3)cc2)cc1 | ATCC 10231 | - | 0.39 µg/mL
COc1cc2c(cc1OC)-c1cc3ccc(OC)c(OC)c3c[n+]1CC2 | ATCC11651 | - | >500 µg/mL
COc1ccc(-c2c(C#N)c(OC)nc3c2CSc2ccccc2-3)cc1OC | - | - | 25 µg/mL
CO[C@@H](n1ccnc1)[C@](O)(Cn1cncn1)c1ccccc1 | - | - | >100 µg/mL
Nc1ccc(O)c2ncccc12 | Berkout KCCM 50235 | - | 1.6 µg/mL
C[C@H](n1nnc(CCN2CCN(c3ccc(F)cc3)CC2)n1)[C@](O)(Cn1cncn1)c1ccc(F)cc1F | - | - | 2 µg/mL
Clc1ccc(COC(Cn2ccnc2)c2ccc(Cl)cc2Cl)c(Cl)c1 | ATCC11651 | - | 25 µg/mL
COc1ccccc1N1CCN(CCc2nnn(C(C)C(O)(Cn3cncn3)c3ccc(F)cc3F)n2)CC1 | V-01-191A-261 (resistant) | - | 8 µg/mL
S=c1oc(C23CC4CC(CC(C4)C2)C3)nn1CN1CCN(c2ccccc2)CC1 | ATCC 753 | - | 400 µg/mL
CCCCCCCC(=O)N[C@H]1CC2C(=O)NCCC[C@H](NC(=O)c3ccc(-c4ccc(-c5ccc(OCCCCC)cc5)cc4)cc3)C(=O)NC(C(C)O)C(=O)N3C[C@H](O)CC3C(=O)NC(CCc3ccc(O)cc3)C(=O)NC(C(C)O)C(=O)N2C1 | ATCC 62376 | - | 50 µg/mL
COc1cc(C(=O)NNC(N)=S)cc(OC)c1OC | - | - | >100 µg/mL
CCC(C)CC(C)CCCCCCCCC(=O)N[C@H]1C[C@@H](O)[C@H](NCCN)NC(=O)[C@@H]2[C@@H](O)CCN2C(=O)[C@H]([C@H](O)CCN)NC(=O)[C@H]([C@H](O)[C@@H](O)c2ccc(O)cc2)NC(=O)[C@@H]2C[C@@H](O)CN2C(=O)[C@H]([C@@H](C)O)NC1=O | W1016 | broth dilution | 1 µg/mL
COc1ccc2c(c1)-c1nc(OC)c(C#N)c(-c3ccc4c(c3)OCO4)c1CS2 | - | - | 25 µg/mL
Cc1cc2ncn(CC(O)COc3cc(OCC(O)Cn4cnc5cc(C)c(C)cc54)c4c(C)cc(=O)oc4c3)c2cc1C | - | - | 16 µg/mL
CS[C@@H](n1cncn1)[C@@](O)(Cn1cncn1)c1ccc(Cl)cc1Cl | - | - | >100 µg/mL
C=CCS/C(N)=N/NC(=O)c1ccccc1 | - | - | >100 µg/mL
CO[C@@H](n1cncn1)[C@](O)(Cn1cncn1)c1ccc(F)cc1 | - | - | >100 µg/mL
COc1ccc(C(=O)N/N=C(\N)SCc2cccc(Cl)c2)cc1 | - | - | >100 µg/mL
O=C(N/N=C/c1ccc([N+](=O)[O-])o1)N1CCCCC1 | - | - | 100 µg/mL
CC[C@@H]([C@H](C)O)n1ncn(-c2ccc(N3CCN(c4ccc(OC[C@@H]5CO[C@@](Cn6cncn6)(c6ccc(F)cc6F)C5)cc4)CC3)cc2)c1=O | Isolate CA-4 | - | >4 µg/mL
S=c1[nH]nc(C23CC4CC(CC(C4)C2)C3)o1 | ATCC 753 | - | 100 µg/mL
CCCCCOc1ccc(-c2ccc(-c3ccc(C(=O)N[C@H]4CCCNC(=O)[C@@H]5C[C@H](N)CN5C(=O)[C@H]([C@@H](C)O)NC(=O)[C@H](Cc5ccc(O)cc5)NC(=O)[C@@H]5C[C@@H](O)CN5C(=O)[C@H]([C@@H](C)O)NC4=O)cc3)cc2)cc1 | ATCC 10231 | - | 0.2 µg/mL
FC(F)(F)c1ccccc1NCSc1nnc(C23CC4CC(CC(C4)C2)C3)o1 | ATCC 753 | - | 200 µg/mL
COCCOCCOCCOCCOCCOCCNC(=O)[C@H]1[C@@H]2C[C@@H](O[C@@H]3O[C@H](C)[C@@H](O)[C@H](N)[C@@H]3O)/C=C/C=C/C=C/C=C/C=C/C=C/C=C/[C@H](C)[C@@H](O)[C@H](C)[C@H](C)OC(=O)C[C@H](O)C[C@H](O)[C@@H](O)CC[C@H](O)C[C@H](O)C[C@](O)(C[C@@H]1O)O2 | Isolate 92-889 | - | 3.03 µg/mL
CO[C@@H](n1cncn1)[C@](O)(Cn1ccnc1)c1ccc(Cl)cc1Cl | - | - | >100 µg/mL
NC(=S)NNC(=O)c1ccc([N+](=O)[O-])cc1 | - | - | >100 µg/mL
C[C@@H](c1ncncc1F)[C@](O)(Cn1cncn1)c1ccc(F)cc1F | OY-12-99 (FLU-R) | - | 32 µg/mL
NC(=O)[C@H](O[C@H]1OC(C(=O)O)=C[C@H](O)[C@@H]1O)[C@H]1O[C@@H](n2ccc(=O)[nH]c2=O)[C@H](O)[C@@H]1O | YU-1200 | - | >100 µg/mL
C=CCN(CC=C)c1nnc2c(cnc3ccccc32)n1 | VM-71 | - | 40 µg/mL
CO[C@H]1[C@@H](O)[C@H](n2ccc(=O)[nH]c2=O)O[C@@H]1[C@@H](O[C@H]1OC(C(N)=O)=C[C@H](O)[C@@H]1O)C(N)=O | YU-1200 | - | >100 µg/mL
CN1CCN(C(=O)N/N=C/c2ccc([N+](=O)[O-])o2)CC1 | - | - | 100 µg/mL
CO[C@H]1[C@@H](O)[C@H](n2ccc(=O)[nH]c2=O)O[C@@H]1[C@@H](O[C@H]1OC(C(=O)N[C@H]2CSC[C@@H](C)NC2=O)=C[C@H](O)[C@@H]1O)C(N)=O | YU-1200 | - | >100 µg/mL
CC(=O)Nc1ccc(/C=N/NC(N)=S)cc1 | - | - | 100 µg/mL
Fc1ccc(N2CCN(Cn3nc(C45CC6CC(CC(C6)C4)C5)oc3=S)CC2)cc1 | ATCC 753 | - | 200 µg/mL
CCC(C)n1ncn(-c2ccc(N3CCN(c4ccc(OC[C@H]5CO[C@](Cn6cncn6)(c6ccc(Cl)cc6Cl)O5)cc4)CC3)cc2)c1=O | Isolate CA-10 | - | >8 µg/mL
Cc1cc(=O)oc2cc(OCC(O)Cn3nnc4ccccc43)cc(OCC(O)Cn3nnc4ccccc43)c12 | - | - | 8 µg/mL
O=[N+]([O-])c1ccc(/C=N/NC(=S)N2CCCCC2)o1 | - | - | 40 µg/mL
C[C@H]1CC[C@@]2(C)[C@@H](CC=C3CO[C@@H](O)[C@@]32O)C12CO2 | B311 | - | 50 µg/mL
Clc1ccc(NCSc2nnc(C34CC5CC(CC(C5)C3)C4)o2)cc1 | ATCC 753 | - | >400 µg/mL
COc1ccc(C(=O)NNC(N)=S)cc1 | - | - | >100 µg/mL
C[C@H]1[C@H](O)[C@@H](C)/C=C/C=C/C=C/C=C/C=C/C=C/C=C/[C@H](O[C@@H]2O[C@H](C)[C@@H](O)[C@H](N)[C@@H]2O)C[C@@H]2O[C@](O)(C[C@@H](O)C[C@@H](O)CC[C@H](O)[C@@H](O)C[C@@H](O)CC(=O)O[C@H]1C)C[C@H](O)[C@H]2C(=O)O | 204276 | broth dilution | 0.06 µg/mL
COC1=NC(C)CC(OC(=O)c2ccc3c(c2)OCO3)=N1 | - | - | >100 µg/mL
COc1ccc(-c2c(C#N)c(OC)nc3c2CSc2ccc(Cl)cc2-3)cc1OC | - | - | 50 µg/mL
Cc1c(O)cccc1C(=O)N[C@@H](CSc1ccccc1)[C@H](O)CN1C[C@H]2CCCC[C@H]2C[C@H]1C(=O)NC(C)(C)C | I167A | - | 8 µg/mL
N#CC1=C(N)OC2=C(CSc3ccccc32)C1c1cccc2ccccc12 | - | - | 25 µg/mL
CCCCOc1ccccc1N1CCN(CCc2nnnn2C(C)C(O)(Cn2cncn2)c2ccc(F)cc2F)CC1 | - | - | 1 µg/mL
COc1ccc(-c2c(C#N)c(OC)nc3c2CSc2ccccc2-3)cc1 | - | - | 50 µg/mL
CCCCCOc1ccc(-c2ccc(C(=O)N[C@H]3CCCNC(=O)C4C[C@H](N)CN4C(=O)C(C(C)O)NC(=O)C(CCc4ccc(O)cc4)NC(=O)C4C[C@@H](O)CN4C(=O)C(C(C)O)NC3=O)cc2)cc1 | ATCC 62376 | - | 0.39 µg/mL
C[C@H](n1nnnc1CCN1CCN(c2ccc(Cl)cc2)CC1)[C@](O)(Cn1cncn1)c1ccc(F)cc1F | - | - | 2 µg/mL
C=CCN(CC=C)C(C)C(O)(Cn1cncn1)c1ccc(F)cc1F | KC-03 | - | <0.025 µg/mL
COc1cc(C(=O)N/N=C(\N)SCc2cccc(Cl)c2)cc(OC)c1OC | - | - | >100 µg/mL
C=C1[C@@H](C)CC[C@@]2(C)[C@H]1CC=C1COC(=O)[C@@]12O | B311 | - | 50 µg/mL
CC(O)C1NC(=O)C(CCc2ccc(O)cc2)NC(=O)C2C[C@@H](O)CN2C(=O)C(C(C)O)NC(=O)[C@@H](NC(=O)c2ccc(N3CCN(c4ccc(OCc5ccccc5)cc4)CC3)cc2)CCCNC(=O)C2C[C@H](N)CN2C1=O | ATCC 10231 | - | 0.2 µg/mL
C=C1CCN([C@H](C)[C@](O)(Cn2cncn2)c2ccc(F)cc2F)CC1 | KC-03 | - | <0.025 µg/mL
CCCCCCCCN[C@H]1C[C@H]2C(=O)NCCC[C@H](NC(=O)c3ccc(-c4ccc(-c5ccc(OCCCCC)cc5)cc4)cc3)C(=O)N[C@@H]([C@@H](C)O)C(=O)N3C[C@H](O)C[C@H]3C(=O)N[C@@H](CCc3ccc(O)cc3)C(=O)N[C@@H]([C@@H](C)O)C(=O)N2C1 | ATCC 62376 | - | 6.25 µg/mL
O=[N+]([O-])c1ccc(N2CCN(CCc3nnn(CC(O)(Cn4cncn4)c4ccc(F)cc4F)n3)CC2)cc1 | - | - | 4 µg/mL

Repeating the final 5 entries:

SMILES,strain,read by,value
C=C1[C@@H](C)CC[C@@]2(C)[C@H]1CC=C1COC(=O)[C@@]12O,B311,-,50 µg/mL
CC(O)C1NC(=O)C(CCc2ccc(O)cc2)NC(=O)C2C[C@@H](O)CN2C(=O)C(C(C)O)NC(=O)[C@@H](NC(=O)c2ccc(N3CCN(c4ccc(OCc5ccccc5)cc4)CC3)cc2)CCCNC(=O)C2C[C@H](N)CN2C1=O,ATCC 10231,-,0.2 µg/mL
C=C1CCN([C@H](C)[C@](O)(Cn2cncn2)c2ccc(F)cc2F)CC1,KC-03,-,<0.025 µg/mL
CCCCCCCCN[C@H]1C[C@H]2C(=O)NCCC[C@H](NC(=O)c3ccc(-c4ccc(-c5ccc(OCCCCC)cc5)cc4)cc3)C(=O)N[C@@H]([C@@H](C)O)C(=O)N3C[C@H](O)C[C@H]3C(=O)N[C@@H](CCc3ccc(O)cc3)C(=O)N[C@@H]([C@@H](C)O)C(=O)N2C1,ATCC 62376,-,6.25 µg/mL
O=[N+]([O-])c1ccc(N2CCN(CCc3nnn(CC(O)(Cn4cncn4)c4ccc(F)cc4F)n3)CC2)cc1,-,-,4 µg/mL